Results deposited as PubChem BioAssay AID504761 (Drosophila RNAi Screening Center, 2011).
The screen tested about 22,000 reagents; shown is an unselected part of those with a known target gene and a result. Over the whole deposit, 116 (0.52%) were called active. 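Calls depend on retest data that are not deposited; infection was ranked per plate without normalising between plates; the unit of the infection score is not given.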 Unmarked entries are inactive. A plus sign joins genes that one reagent is predicted to hit. Further read-outs or replicates are left out here. Not given: the amount of reagent, the time to read-out.

- Screen: 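Insect host genes that dengue virus relies on to spread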 (primary screen)
- System: D.Mel-2 cells from Drosophila
- Reagent: long dsRNA against Drosophila genes
- Conditions: infection with dengue virus type 2; dose and infection time not stated
- Measurement: 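Per well on two replicate plates, imaging gave the percent of cells positive for viral envelope protein, ranked by infection, and a nuclear count of cells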
- Direction: infection score: higher = more virus-infected cells
- Call rule: 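Very low infection ranking in both replicate wells (chance probability at most 0.065), then a retest showing infection dropped 1.5-fold or more at p below 0.05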
- Calls: active = confirmed: knock-down lowers infection; inactive = not picked or not confirmed

{"gene":"Vha16-1","DRSC id":"DRSC05020","infection score, replicate 1":8.72}
{"gene":"Gem4b + Gem4c + Glos","DRSC id":"DRSC18244","infection score, replicate 1":1.52}
{"gene":"dac","DRSC id":"DRSC03518","infection score, replicate 1":4.41}
{"gene":"CG15525","DRSC id":"DRSC15062","infection score, replicate 1":11.3}
{"gene":"CG15525","DRSC id":"DRSC27631","infection score, replicate 1":2.14}
{"gene":"CG2861","DRSC id":"DRSC18229","infection score, replicate 1":3.8}
{"gene":"ref(2)P","DRSC id":"DRSC03601","infection score, replicate 1":12.6}
{"gene":"CG7655","DRSC id":"DRSC16275","infection score, replicate 1":8.6}
{"gene":"Sox100B","DRSC id":"DRSC15090","infection score, replicate 1":6.24}
{"gene":"Sox100B","DRSC id":"DRSC23485","infection score, replicate 1":4.26}
{"gene":"CG14866","DRSC id":"DRSC14989","infection score, replicate 1":4.49}
{"gene":"CG13151","DRSC id":"DRSC06276","infection score, replicate 1":8.26}
{"gene":"bsd","DRSC id":"DRSC05953","infection score, replicate 1":12.9}
{"gene":"cuff","DRSC id":"DRSC06315","infection score, replicate 1":19.4}
{"gene":"CG13901","DRSC id":"DRSC08371","infection score, replicate 1":7.48}
{"gene":"ppk7","DRSC id":"DRSC03236","infection score, replicate 1":1.66}
{"gene":"CG13587","DRSC id":"DRSC04223","infection score, replicate 1":8.76}
{"gene":"CG13587","DRSC id":"DRSC29632","infection score, replicate 1":9.58}
{"gene":"Unc-115b + p24-2","DRSC id":"DRSC16492","infection score, replicate 1":9.74}
{"gene":"Nuf2","DRSC id":"DRSC03123","infection score, replicate 1":4.22}
{"gene":"Vha16-2","DRSC id":"DRSC10873","infection score, replicate 1":5.97}
{"gene":"Vha16-2","DRSC id":"DRSC25504","infection score, replicate 1":3.6}

Quoted from the entries so far, 2 entries:
{"gene":"Vha16-2","DRSC id":"DRSC10873","infection score, replicate 1":5.97}
{"gene":"Vha16-2","DRSC id":"DRSC25504","infection score, replicate 1":3.6}
